Results of unrelated studies side by side (data: NIAID ChemDB).

All rows: growth or infection tests; organism: Mycobacterium tuberculosis

Percent inhibition refers to the dose given; in toxicity tests it is the harm to the cells. ECn is the concentration giving n% inhibition of infection, replication or growth. Rows are shuffled and stem from different studies. An empty or dashed field is not shown. MIC bound comes from a single tested concentration. For "inactive" no cut-off is given. A number after MIC or MFC names an inhibition level or a share of isolates.

structure,read-out,tested at,cells,strain or isolate,conditions,changes,method,result
Brc1ccc2nc(CCC3CCCCC3)[nH]c2c1,MIC90,,,H37Rv,,4/3 MmpL3 (V195A),visual reading / absorbance,13 µM
CCOc1ccc2c(c1)n([O-])c1cc(Cl)ccc1[n+]2=O,MIC,,VERO,H37Rv,,,,1.6 µg/mL
Cc1ccc2c(c1)c1c3n2CCN(CC(O)CNC(C)C)C3CCC1,MIC,,,H37Rv,,,,16 µg/mL
CCCCCCCCCCCCCCC[C@H](O)CCCC[C@H](O)C[C@H]1CC=CC(=O)O1,MIC,,,H37Rv,,,,17.31 µg/mL
C=CCN1C(=O)c2c(C)cc(C)nc2S1(=O)=O,EC50,,,H37Rv,,,,>12.5 µg/mL
O=[N+]([O-])c1ccc(CN2CCC3(CC2)CCN(c2ccc(OC(F)(F)F)cc2)CC3)o1,MIC90,,,Clinical Isolate 16833,,INH RFP resistant,resazurin,4.95 µg/mL
CCOC(=O)c1cc(-c2ccc(Cl)cc2)n(CCC(=O)N/N=C/c2[nH]c(C)c(C(C)=O)c2C)c1C,inhibition,6.25 µg/mL,,H37Rv,,,,100%
CSC(=NCc1ccccc1)Nn1c(C)nc2ccccc2c1=O,EC50,,,H37Rv,,,resazurin,25 µg/mL
Cc1ncc([N+](=O)[O-])n1CCO,EC50,,,,,,broth dilution,17.2 µg/mL
Cc1cc(C)c2c(n1)S(=O)(=O)N(CC(=O)c1ccccc1)C2=O,EC50,,,H37Rv,,,,>12.5 µg/mL
O=C1C2[Se][Se]C(C(=O)N2Cc2ccccc2)N1Cc1ccccc1,EC50,,,,,,turbidity,2.7 µM
Cc1cc(C)c2c(=O)n(CC(N)=O)sc2n1,MIC,,,H37Rv,,,,>12.5 µg/mL
C=C[C@]1(C)C=C2[C@H](O)C[C@@H]3C(C)(CCC[C@@]3(C)CO)[C@H]2CC1,inhibition,100 µg/mL,,ITM3533,,,,inactive
CO[C@H]1/C=C/O[C@@]2(C)Oc3c(C)c(O)c4c(O)c(c5c(c4c3C2=O)NC2(CCN(CC(C)C)CC2)N=5)=NC(=O)/C(C)=C\C=C\[C@H](C)[C@H](O)[C@@H](C)[C@@H](O)[C@@H](C)[C@H](OC(C)=O)[C@@H]1C,MIC,,,2 isolates (HIS526TYR),,,,>5 µg/mL
C=CCOc1cc2c(c3oc(=O)cc(CCC)c13)C(O)[C@H](C)[C@@H](C)O2,MIC,,,H37Ra,,,,>128 µg/mL
CCCCCCC(=O)Oc1ccc2c(c1)[nH]c1c(C)nccc12,inhibition,6.25 µg/mL,,H37Rv,,,,29%
CCO/C=N/n1c(C(=O)NCCCOC)nc2ccccc2c1=O,inhibition,6.25 µg/mL,,H37Rv,,,resazurin,7%
Cc1cc(C)c2c(n1)S(=O)(=O)N(CC(=O)c1ccccn1)C2=O,MIC,,,H37Rv,,,,>12.5 µg/mL
CC(C)(C)OC(=O)c1cnc(Cl)cn1,MIC,,,ATCC 35828,,,,4 µg/mL
CCOC(=O)C1=Nc2cccc3c(O)ccc1c23,inhibition,12.5 µg/mL,,H37Rv,,,BACTEC,31%
Cc1ccc2c(c1)c1c3n2CCN(C(=O)CCC(=O)O)C3CCC1,MIC,,,H37Rv,,,,32 µg/mL
CCCc1cc(=O)oc2c(C(O)CC)c(OC(C)C)cc(OC(C)C)c12,MIC,,,H37Ra,,,,>128 µg/mL
CN1C(=O)C2N(C(=O)C1(C)S)c1ccccc1C2(C)C,MIC bound,,,H37Rv,,,resazurin,>6.25 µg/mL
Cc1nccc2c1[nH]c1cc(OC(=O)/C=C/c3ccccc3)ccc12,EC50,,,H37Rv,,,,>6.25 µg/mL
Clc1cc(Cl)c2ns[s+]c2c1Cl.[Cl-],inhibition,6.25 µg/mL,,H37Rv,,,BACTEC,52%
CC(=O)CN1CCn2c3c(c4cc(C)ccc42)CCCC31,MIC,,,H37Rv,,,,64 µg/mL
CNC(=O)CC1NC(=O)c2nc(sc2COC)C(C(C)C)NC(=O)c2csc(n2)-c2ccc(-c3nc(C4=NC(C(=O)N5CCCC5C(N)=O)CO4)cs3)nc2-c2csc(n2)-c2csc(n2)C(C(O)c2ccccc2)NC(=O)CNC(=O)c2nc1sc2C,MIC,,,,,,,1 µg/mL
CCn1cc(C(=O)O)c(=O)c2cc(F)c(N3CCN(CN4C(=O)/C(=N\c5ncc(Cc6cc(OC)c(OC)c(OC)c6)c(N)n5)c5cc(Cl)ccc54)CC3)cc21,inhibition,6.25 µg/mL,,H37Rv,,,resazurin,46%
CCC(=O)Oc1ccc2c(c1)[nH]c1c(C)nccc12,inhibition,6.25 µg/mL,,H37Rv,,,,38%
NNC(=O)c1ccncc1,MIC90,,,Clinical Isolate 16833,,INH RFP resistant,resazurin,>40 µg/mL
CCCCc1ccc(N=c2scc(C)n2-c2ccc(CCCC)cc2)cc1,MIC,,,H37Rv,,,,>32 µg/mL
Cc1ccc2c(c1)c1c3n2CCN(C=O)C3CCC1,MIC,,,ATCC 607,,,,64 µg/mL
CC1(C)CC(N=c2cc3n(-c4ccccc4Cl)c4ccccc4nc-3cc2Nc2ccccc2Cl)CC(C)(C)N1,inhibition,0.005 µg/mL,Macrophages,H37Rv,inside macrophages,,,85%
CC(=O)C1=C(O)c2c(C)cc(C)nc2S(=O)(=O)N1CC(=O)c1ccccc1,MIC,,,H37Rv,,,,>12.5 µg/mL
CC(C)(C)c1ccc(N2CCC3(CCN(Cc4ccc([N+](=O)[O-])o4)CC3)CC2)cc1,MIC90,,,H37Rv,,,resazurin,<0.016 µg/mL
CC(NC(=O)CNC(=O)c1cnc2ccccc2n1)C(=O)O,inhibition,12.5 µg/mL,,H37Rv,,,BACTEC,2%
CCCCCCCCCCCCCCC[C@H]1CC=CC(=O)O1,inhibition,128 µg/mL,,H37Rv,,,fluorescence,63.7%
CCCc1cc(=O)oc2c(C(=O)CC)c(OC(C)=O)c3c(c12)OC(C)(C)CC3,MIC,,,H37Ra,,,,>128 µg/mL
CC(=O)C(NC(=O)C(C)C(O)C(C)NC(=O)C(NC(=O)c1nc(C(CC(N)=O)NCC(N)C(N)=O)nc(N)c1C)C(OC1OC(CO)C(O)C(O)C1(C)OC1OC(CO)C(O)C(O)(C(N)=O)C1O)c1cnc[nH]1)C(=O)NCCC1=NC(c2nc(C(N)=O)cs2)CS1,MIC,,,ETA-R,,,,0.006 µg/mL
Cc1ccc2c(c1)c1c3n2CCN(C(=O)/C=C/C(=O)O)C3CCC1,MIC,,,ATCC 607,,,,125 µg/mL
CCCCCCCCCCCCCCC[C@H](O)C[C@H]1CC=CC(=O)O1,MIC,,,H37Rv,,,,35.57 µg/mL
CCOC(=O)c1[nH]c2ccc(OC)c3c2c1CCC3=O,MIC bound,,,H37Rv,,,BACTEC,>12.5 µg/mL
COc1nc2ccc(Br)cc2cc1[C@@H](c1ccccc1)[C@@](O)(CCN(C)C)c1cccc2ccccc12,MIC,,,H37Rv,,,,0.03 µg/mL
CCOC(=O)c1cc(-c2ccc(Cl)cc2)n(CC(=O)N/N=C/c2ccccc2O)c1C,MIC,,,H37Rv,,,,>6.25 µg/mL
C/C=C/COc1cc2c(c3oc(=O)cc(CCC)c13)C(O)[C@@H](C)[C@@H](C)O2,MBC,,,H37Ra,,,,>64 µg/mL
COc1ccc(OC)c(NC(=O)Sc2c(Cl)c(Cl)nc(Cl)c2Cl)c1,inhibition,6.25 µg/mL,,H37Rv,,,resazurin,50%
CSC(=Nc1ccc(F)cc1)Nn1c(C)nc2ccccc2c1=O,EC50,,,H37Rv,,,resazurin,25 µg/mL
CCCCCCCCCCCCCC[C@H](O)C[C@H](O)C[C@H](O)C[C@H]1CC=CC(=O)O1,MIC,,,H37Rv,,,,29.4 µg/mL
CN=C(Nn1c(C)nc2ccccc2c1=O)SC,EC50,,,H37Rv,,,resazurin,25 µg/mL
S=C1N(c2ccccc2)CCN1c1ccccc1,inhibition,12.5 µg/mL,,H37Rv,,,BACTEC,0%
CCCCCCCCCCCCCCC[C@H]1CC=CC(=O)N1,MIC,,,H37Rv,,,,>128 µg/mL
CCCCCCCC(OC(=O)c1cnc(Cl)cn1)C(C)(C)C,MIC,,,ATCC 35828,,,,8 µg/mL
CC1(c2cccc3c2C2(O)C=CC4(CCC32)OCCO4)OCCO1,MIC bound,,,H37Rv,,,BACTEC,>12.5 µg/mL
COC(=O)Nc1ccc(S(=O)(=O)N2CCn3c4c(c5cc(C)ccc53)CCCC42)cc1,MIC,,,H37Rv,,,,500 µg/mL
CCOC(=O)c1cc(-c2ccc(Cl)cc2)n(CCC(=O)N/N=C/c2ccc(OC)cc2)c1C,inhibition,6.25 µg/mL,,H37Rv,,,,92%
NC(=O)c1cnccn1,inhibition,800 µg/mL,,TB186,7 d,,,99.3%
CSC(=Nc1ccccc1)Nn1c(C)nc2ccccc2c1=O,EC50,,,H37Rv,,,resazurin,25 µg/mL
O=[N+]([O-])c1ccc(/C=N/Nc2nnc3c4ccccc4c4ncccc4c3n2)o1,inhibition,6.25 µg/mL,,H37Rv,,,,-5%
COc1cnc2ccc(=O)n(CCN3CCC(NCc4cc(Cl)c(Cl)cn4)CC3)c2c1,MIC,,,Beijing 1237,,,resazurin,0.03 µg/mL
Cc1ccc2c(c1)c1c3n2CCN(CC(C)O)C3CCC1,MIC,,,H37Rv,,,,64 µg/mL
Cc1nccc2c1[nH]c1cc(OS(C)(=O)=O)ccc12,EC50,,,H37Rv,,,,>6.25 µg/mL
O=[N+]([O-])c1ccc(CN2CCC3(CC2)CCN(c2cccc(C(F)(F)F)c2)CC3)o1,MIC90,,,H37Rv,,,resazurin,0.035 µg/mL
Cc1cc(C)c2c(n1)S(=O)(=O)N(CCO)C2=O,EC50,,,H37Rv,,,,>12.5 µg/mL
COc1ccc2c(=O)c(C)c(-c3ccccc3)oc2c1CN(C)C,MIC,,,H37Rv,,,BACTEC,≥12.8 µg/mL
CCCCCCCCCCCCCCC[C@H](O)C[C@H](O)CCC[C@H]1CC=CC(=O)O1,MIC,,,H37Rv,,,,38.04 µg/mL
CC[C@@H](CO)NCCN[C@@H](CC)CO,MIC90,,,H37Rv,,EJMCh4/1 MmpL3 (V285A),visual reading / absorbance,7.7 µM
O=C(NC1=NC2C=CC([N+](=O)[O-])=CC2S1)C(=O)Nn1c(=S)[nH]c2ccccc2c1=O,inhibition,12.5 µg/mL,,H37Rv,,,BACTEC,23%
CC(C)CCOc1ccc(N=C2SCC(=O)N2c2ccc(OCCC(C)C)cc2)cc1,MIC,,,H37Rv,,,,32 µg/mL
O=[N+]([O-])c1ccc(CN2CCC3(CC2)CCN(c2ccc(C(F)(F)F)cc2)CC3)o1,MIC90,,,Clinical Isolate 16995,,INH RFP resistant,resazurin,>10 µg/mL
CC1(C)CC(N=c2cc3n(-c4ccc(Cl)cc4Cl)c4ccccc4nc-3cc2Nc2ccc(Cl)cc2Cl)CC(C)(C)N1,inhibition,0.005 µg/mL,Macrophages,H37Rv,inside macrophages,,,60%
O=C(CNN1CCOCC1)Nc1ccc(S(=O)(=O)c2ccc(NC(=O)CNN3CCOCC3)cc2)cc1,inhibition,6.25 µg/mL,,H37Rv,,,resazurin,45%
Cc1cc2nc(CCC3CCCCC3)[nH]c2cc1C,MIC90,,,H37Rv,,,visual reading / absorbance,0.145 µM
[O-][n+]1c2ccc(I)cc2[n+]([O-])c2c3ccccc3[nH]c21,MIC,,,H37Rv,,,resazurin,3.13 µg/mL
O=[N+]([O-])c1ccc(CN2CC3CN(c4cccc(C(F)(F)F)c4)CC3C2)o1,MIC90,,,Clinical Isolate 16833,,INH RFP resistant,resazurin,0.016 µg/mL
CCCCCCCCCCCCCCC[C@H](O)CCC[C@H]1CC=CC(=O)O1,inhibition,128 µg/mL,VERO,H37Rv,,,fluorescence,97.4%
CCOC(=O)/C=C/c1ccc(OC)cc1,MIC,,,BTB08-072,,,resazurin,242 µM
C=CCOc1ccc(N=c2scc(CCN3CCCCC3)n2-c2ccc(OCC=C)cc2)cc1,MIC,,,H37Rv,,,,24 µg/mL
CSC(=Nc1ccc(Br)cc1)Nn1c(C)nc2ccccc2c1=O,EC50,,,H37Rv,,,resazurin,12.5 µg/mL
CCCc1cc(=O)oc2c(C(O)CC)c(OCC)c3c(c12)OC(C)(C)CC3,MIC,,,H37Ra,,,,>128 µg/mL
Cc1cc(C)c2c(=O)n(CC(O)CN3CCc4ccccc4C3)sc2n1,inhibition,12.5 µg/mL,,H37Rv,,,,33%
C[n+]1ccccc1-c1c(C(=O)N2CCCC2C(=O)NC2CCC(C(N)=O)N2C=O)ccc[n+]1Cc1cccc(C[n+]2cccc(C(=O)N3CCCC3C(N)=O)c2)c1,inhibition,12.5 µg/mL,,H37Rv,,,BACTEC,-14%
CC(C)COC(=O)c1cnccn1,MIC,,,ATCC35801,,,,4 µg/mL
CCCCC1=NCCc2c1cc1c([nH]c3ccccc31)c2C,MIC,,,H37Rv,,,resazurin,1.56 µg/mL
CCCCCC(CC)OC(=O)c1cnc(Cl)cn1,MIC,,,ATCC35801,,,,0.25 µg/mL
Cc1cccc2c1-c1c(C)cccc1NC(=O)CCCCCCCCC(=O)N2,inhibition,6.25 µg/mL,,H37Rv,,,resazurin,42%
CCCc1ccc(N=c2scc(CCN3CCCCC3)n2-c2ccc(CCC)cc2)cc1,MIC,,,H37Rv,,,,12 µg/mL

A second listing of 5 rows from above:

structure | read-out | tested at | cells | strain or isolate | conditions | changes | method | result
COc1cnc2ccc(=O)n(CCN3CCC(NCc4cc(Cl)c(Cl)cn4)CC3)c2c1 | MIC |  |  | Beijing 1237 |  |  | resazurin | 0.03 µg/mL
C=CCOc1cc2c(c3oc(=O)cc(CCC)c13)C(O)[C@H](C)[C@@H](C)O2 | MIC |  |  | H37Ra |  |  |  | >128 µg/mL
CCCCCCCCCCCCCCC[C@H]1CC=CC(=O)N1 | MIC |  |  | H37Rv |  |  |  | >128 µg/mL
Brc1ccc2nc(CCC3CCCCC3)[nH]c2c1 | MIC90 |  |  | H37Rv |  | 4/3 MmpL3 (V195A) | visual reading / absorbance | 13 µM
CSC(=Nc1ccc(Br)cc1)Nn1c(C)nc2ccccc2c1=O | EC50 |  |  | H37Rv |  |  | resazurin | 12.5 µg/mL